In data set [1] the target is HpArsR-P (phosphorylated ArsR) (Helicobacter pylori J99) (UniProt Q9ZMR6). As to the kind of experiment: fluorescence anisotropy competition. The note with it: 5 mM MgCl2, competitor vs 5 nM PureA-F, 1.5 uM HpArsR-P; 50 mM Tris-HCl, 5 mM MgCl2, 100 mM KCl, 5 mM TCEP, pH 7.5, 25 C; 15 nM PureA-F (direct) or 5 nM PureA-F + 1.5 uM HpArsR-P (competition); recombinant protein; protein details: N-terminal His6 (pQE3); label: none (competitor).

Data set [2] has the same target. Put plainly: fluorescence anisotropy (direct titration). The note with it: 5 mM MgCl2, phosphorylated ArsR; 50 mM Tris-HCl, 5 mM MgCl2, 100 mM KCl, 5 mM TCEP, pH 7.5, 25 C; 15 nM PureA-F (direct) or 5 nM PureA-F + 1.5 uM HpArsR-P (competition); recombinant protein; protein details: N-terminal His6 (pQE3).

Construct, isoform or probe ends are uncertain for at least one entry.

Consider “CTTCAAAGATACCCCCCCAATTCATTTTAAATAATAATTAGTTAATGA (double strand) [PureA C/WT]”, for which, in data set [1], the Kd worked out at 20 nM.

“CTTCAAAGATACCCCCCCAATTCATTTTACCCCCCCATTAGTTAATGA (double strand) [PureA C/C]”: the Kd in data set [1] was found to be 23 nM. As for “CTTCAAAGATATAACACTAATTCATTTTAAATAATAATTAGTTAATGA (double strand) [PureA WT/WT (PureA-F)]”, the Kd in data set [2] stood at 17 nM. As to “CTTCAAAGATATAACACTAATTCATTTTACCCCCCCATTAGTTAATGA (double strand) [PureA WT/C]”, the Kd in data set [1] came to 24 nM.

The values above are taken from PMC4464171.
